PubChem BioAssay AID556 (SRMLSC, 2006)
The list shows a part of the results, in another mix than the full data. Activity calls are given as the source filed them.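 The calls were made as follows: active = the 320 compounds with the highest percent inhibition in the single-dose primary screen, excluding strongly autofluorescent ones (cut at about 32% in these data); inactive = the rest, inconclusive results apart.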

The compounds below were run on diphosphomevalonate decarboxylase (Streptococcus pneumoniae D39) (assay: diphosphomevalonate decarboxylase activity blockers – biochemical, PK/LDH-coupled NADH fluorescence, primary screen (AID 556;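 as to inhibition: kinetic rate of NADH fluorescence loss reporting ADP formed by the decarboxylase; 0% = full reaction rate with carrier and 100% = no-substrate background rate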)). Settings: purified DPM-DC, at 10 µM; stronger effect = higher value.

Compound	inhibition
COc1ccc(NC2CCN(CCc3ccccc3)CC2)c(OC)c1	inactive
O=C(OC1CN2CCC1CC2)C1c2ccccc2Oc2ccccc21 (configuration not stated)	inactive
N#CC1(Nc2ccccc2)CCN(CCc2ccccc2)CC1	inactive
N/C(=N\O)c1c(N)no[n+]1[O-]	inactive
CCC(CO)(C(=O)OC1CN2CCC1CC2)c1ccccc1 (configuration not stated)	inactive
CCOc1ncccc1C(=O)NCC1(N2CCOCC2)CCCCC1	inactive
Fc1ccccc1NC1CCN(Cc2ccccc2)CC1	inactive: 1%
